27 molecules from patent publication US20220089698A1, “ANTIBODIES THAT TARGET HIV GP120 AND METHODS OF USE” (published 2022) can be followed below.

Holding throughout (assay): cell-based or functional assay
Test [1] has as its target HIV-1 envelope glycoprotein gp120 of virus CHO77 (HIV-1 subtype B, virus CHO77).
Test [2] addresses HIV-1 envelope glycoprotein gp120 of virus BaL (HIV-1 BaL (lab adapted strain, subtype …)).
The target of test [3] is HIV-1 envelope glycoprotein gp120 of virus 92US657 (HIV-1 subtype B, isolate 92US657).

Positions count from the first letter of the chain named.

B1: Antibody 1.22.1-1 (antibody, human IgG1, kappa)
heavy: QVQLLQSGAAVTKPGASVRVSCEASGYNIRDYFIHWWRQAPGQGLQWVGWINPKTGQPNNPRQFQGRVSLTRHASTFSFYMDLKALRSDDTAVYFCARQRSDYWDFDVWGSGTQVTVSSASTKGPSVFPLAPSSKSTSGGTAALGCLVKDYFPEPVTVSWNSGALTSGVHTFPAVLQSSGLYSLSSVVTVPSSSLGTQTYICNVNHKPSNTKVDKKVEPKSCDKTHTCPPCPAPELLAGPDVFLFPPKPKDTLMISRTPEVTCVVVDVSHEDPEVKFNWYVDGVEVHNAKTKPREEQYNSTYRVVSVLTVLHQDWLNGKEYKCKVSNKALPLPEEKTISKAKGQPREPQVYTLPPSREEMTKNQVSLTCLVKGFYPSDIAVEWESNGQPENNYKTTPPVLDSDGSFFLYSKLTVDKSRWQQGNVFSCSVLHEALHSHYTQKSLSLSPGK
light: not shown
As for B1, the entries for the “Virus Neutralization Potency (IC50)” value in test [1], in test [2] and in test [3] were 0.95 µg/mL, greater than 20 µg/mL and 11.3 µg/mL, respectively.

B2: Antibody 1.3.1-1 (antibody, human IgG1, kappa)
heavy: QVSLLQSGAAVTKPGASVRVSCEASGYNIRDYFIHWWRQAPGQGLQWVGWINPKTGQPNNPRQFQGRVSLTRHASWDFDTFSFYMDLKALRSDDTAVYFCARQRSDYWDFDVWGSGTQVTVSSASTKGPSVFPLAPSSKSTSGGTAALGCLVKDYFPEPVTVSWNSGALTSGVHTFPAVLQSSGLYSLSSVVTVPSSSLGTQTYICNVNHKPSNTKVDKKVEPKSCDKTHTCPPCPAPELLAGPDVFLFPPKPKDTLMISRTPEVTCVVVDVSHEDPEVKFNWYVDGVEVHNAKTKPREEQYNSTYRVVSVLTVLHQDWLNGKEYKCKVSNKALPLPEEKTISKAKGQPREPQVYTLPPSREEMTKNQVSLTCLVKGFYPSDIAVEWESNGQPENNYKTTPPVLDSDGSFFLYSKLTVDKSRWQQGNVFSCSVLHEALHSHYTQKSLSLSPGK
light: not shown
B2: the “Virus Neutralization Potency (IC50)” value in test [1] came out at 0.08 µg/mL; in test [2], 0.26 µg/mL; in test [3], 1.84 µg/mL.

B3: Antibody 1.1.12-1 (antibody, human IgG1, kappa)
heavy: B2 heavy with S3Q
light: not shown
On to B3, for which the entries for the “Virus Neutralization Potency (IC50)” value in test [1], in test [2] and in test [3] were 0.12 µg/mL, 0.06 µg/mL and 1.64 µg/mL, respectively.

B4: Antibody 1.25.1-1 (antibody, human IgG1, kappa)
heavy: B2 heavy with S3Q, K88S, A89R
light: not shown
In the case of B4, the “Virus Neutralization Potency (IC50)” value was 0.12 µg/mL in test [1], 0.17 µg/mL in test [2] and 1.46 µg/mL in test [3].

B5: Antibody 1.21.1-1 (antibody, human IgG1, kappa)
heavy: B2 heavy with S3Q, H73D
light: not shown
Turning to B5, the “Virus Neutralization Potency (IC50)” value in test [1] worked out at 0.17 µg/mL; in test [2] it was 0.11 µg/mL; in test [3], 2.51 µg/mL.

B6: Antibody 1.18.1-1 (antibody, human IgG1, kappa)
heavy: B2 heavy with S3Q, T55H
light: not shown
As to B6, the “Virus Neutralization Potency (IC50)” value is 0.1 µg/mL in test [1], 0.12 µg/mL in test [2] and 1.78 µg/mL in test [3].

B7: Antibody 1.1.10-1 (antibody, human IgG1, kappa)
heavy: B2 heavy with S3Q
light: not shown
In the case of B7, the figures for the “Virus Neutralization Potency (IC50)” value in test [1], in test [2] and in test [3] were 0.07 µg/mL, 0.1 µg/mL and 0.6 µg/mL, respectively.

B8: Antibody 1.1.4-1 (antibody, human IgG1, kappa)
heavy: B2 heavy with S3Q
light: not shown
For the molecule B8, the “Virus Neutralization Potency (IC50)” value was determined as 0.12 µg/mL in test [1], 0.1 µg/mL in test [2] and 1.44 µg/mL in test [3].

B9: Antibody 1.1.5-1 (antibody, human IgG1, kappa)
heavy: B2 heavy with S3Q
light: not shown
As to B9, the “Virus Neutralization Potency (IC50)” value was 0.12 µg/mL in test [1], 0.21 µg/mL in test [2] and 1.93 µg/mL in test [3].

B10: Antibody 1.15.1-1 (antibody, human IgG1, kappa)
heavy: B2 heavy with S3Q, T55W
light: not shown
For the molecule B10, the entries for the “Virus Neutralization Potency (IC50)” value in test [1], in test [2] and in test [3] were 0.1 µg/mL, 0.17 µg/mL and 1.42 µg/mL, respectively.

B11: Antibody 1.7.1-1 (antibody, human IgG1, kappa)
heavy: B2 heavy with S3Q, A10E, T12K
light: not shown
For B11, the “Virus Neutralization Potency (IC50)” value was 0.1 µg/mL in test [1], 0.51 µg/mL in test [2] and 1.1 µg/mL in test [3].

B12: Antibody 1.27.1-1 (antibody, human IgG1, kappa)
heavy: B2 heavy with S3Q, S105T
light: not shown
Turning to B12, the “Virus Neutralization Potency (IC50)” value in test [1] is 0.13 µg/mL; in test [2], 0.54 µg/mL; in test [3], 0.56 µg/mL.

B13: Antibody 1.6.1-1 (antibody, human IgG1, kappa)
heavy: B2 heavy with S3Q, A10E
light: not shown
Turning to B13, the “Virus Neutralization Potency (IC50)” value in test [1] is 0.1 µg/mL; in test [2] it was 0.39 µg/mL; in test [3], 1.32 µg/mL.

B14: Antibody 1.4.1-1 (antibody, human IgG1, kappa)
heavy: B2 heavy with S3Q, L5V
light: not shown
Regarding B14, the “Virus Neutralization Potency (IC50)” value stood at 0.04 µg/mL in test [1], 0.21 µg/mL in test [2] and 1.35 µg/mL in test [3].

B15: Antibody 1.1.13-1 (antibody, human IgG1, kappa)
heavy: B2 heavy with S3Q
light: not shown
Consider B15, for which the “Virus Neutralization Potency (IC50)” value in test [1] was determined as 0.09 µg/mL; in test [2], 0.19 µg/mL; in test [3] it was 1.43 µg/mL.

B16: Antibody 1v2-1 (antibody, human IgG1, kappa)
heavy: B2 heavy with S3Q, F81Y
light: not shown
On to B16, for which the figures for the “Virus Neutralization Potency (IC50)” value in test [1], in test [2] and in test [3] were 0.07 µg/mL, 0.08 µg/mL and 0.88 µg/mL, respectively.

B17: Antibody 1.8.1-1 (antibody, human IgG1, kappa)
heavy: B2 heavy with S3Q, L5V, A10E
light: not shown
In the case of B17, the “Virus Neutralization Potency (IC50)” value was found to be 0.09 µg/mL in test [1], 0.04 µg/mL in test [2] and 1.88 µg/mL in test [3].

B18: Antibody 1.1.11-1 (antibody, human IgG1, kappa)
heavy: B2 heavy with S3Q
light: not shown
As to B18, the “Virus Neutralization Potency (IC50)” value in test [1] amounted to 0.13 µg/mL; in test [2], 0.09 µg/mL; in test [3], 1.17 µg/mL.

B19: Antibody 1.9.1-1 (antibody, human IgG1, kappa)
heavy: B2 heavy with S3Q, L5V, A10E, T12K, E23K
light: not shown
With B19, the figures for the “Virus Neutralization Potency (IC50)” value in test [1], in test [2] and in test [3] were 0.17 µg/mL, 0.2 µg/mL and 1.39 µg/mL, respectively.

B20: Antibody 1.26.1-1 (antibody, human IgG1, kappa)
heavy: B2 heavy with S3Q, V97T
light: not shown
In the case of B20, the “Virus Neutralization Potency (IC50)” value in test [1] was found to be 0.11 µg/mL; in test [2], 0.06 µg/mL; in test [3], 0.93 µg/mL.

B21: Antibody 1.1.19-1 (antibody, human IgG1, kappa)
heavy: B2 heavy with S3Q
light: not shown
As to B21, the “Virus Neutralization Potency (IC50)” value in test [1] is 0.12 µg/mL; in test [2], 0.09 µg/mL; in test [3] it was 0.9 µg/mL.

B22: Antibody 1.1.2-1 (antibody, human IgG1)
heavy: B2 heavy with S3Q
VL: DIQMTQSPSSLSASVGDTVTITCQANGYLNWYQQKPGKAPKLLIYDGSKLERGVPSRFSGRRWGQEYNLTINNLQPEDIATYFCQVYEFVVPGTKVDIK
On to B22, for which the “Virus Neutralization Potency (IC50)” value in test [1] was found to be 0.14 µg/mL; in test [2], 0.2 µg/mL; in test [3], 0.62 µg/mL.

B23: Antibody 1.1.17-1 (antibody, human IgG1, kappa)
heavy: B2 heavy with S3Q
light: not shown
In the case of B23, the “Virus Neutralization Potency (IC50)” value in test [1] is 0.1 µg/mL; in test [2], 0.08 µg/mL; in test [3] it was 1.27 µg/mL.

B24: Antibody 1.29.1-1 (antibody, human IgG1, kappa)
heavy: B2 heavy with S3Q, S115Q
light: not shown
Turning to B24, the “Virus Neutralization Potency (IC50)” value in test [1] was found to be 0.09 µg/mL; in test [2] it was 0.14 µg/mL; in test [3], 1.33 µg/mL.

B25: Antibody 1.28.1-1 (antibody, human IgG1, kappa)
heavy: B2 heavy with S3Q, V97T, S105T
light: not shown
On to B25, for which the “Virus Neutralization Potency (IC50)” value stood at 0.1 µg/mL in test [1], 0.11 µg/mL in test [2] and 1.63 µg/mL in test [3].

B26: Antibody 1.30.1-1 (antibody, human IgG1, kappa)
heavy: B2 heavy with S3Q, Q118M
light: not shown
With B26, the “Virus Neutralization Potency (IC50)” value in test [1] is 0.06 µg/mL; in test [2], 0.15 µg/mL; in test [3], 0.93 µg/mL.

B27: Antibody 1.5.1-1 (antibody, human IgG1, kappa)
heavy: B2 heavy with S3Q, L5V, E23K
light: not shown
Turning to B27, the “Virus Neutralization Potency (IC50)” value turned out to be 0.14 µg/mL in test [1], 0.26 µg/mL in test [2] and 0.85 µg/mL in test [3].
